Laboratory results: the supplement of paper PMC9931576
Human monoclonal antibodies against the spike receptor-binding domain (heavy:light variable regions). IC50 against pseudoviruses bearing the spike of naturally observed variants; lower = stronger; >10 µg/ml means not reached at the top dose. No active / inactive call. The stated detection limit is 0.0005 µg/ml; values near or below 0.001 µg/ml lie at the floor of the assay.

Legend:
Assay in all cases: pseudovirus neutralization IC50; higher = weaker neutralization
[1] = target: SARS-CoV-2 Omicron BA.1 spike pseudovirus
Description: (§1)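 Single-round VSV luciferase pseudovirus mixed with antibody dilutions for 1 h and put on Huh-7 cells for about a day; IC50 from the dose curve.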

[2] = target: SARS-CoV-2 Omicron BA.2 spike pseudovirus
Description: as §1

[3] = target: SARS-CoV-2 Omicron BA.2.75 spike pseudovirus
Description: as §1

[4] = target: SARS-CoV-2 Omicron BA.5 spike pseudovirus
Description: as §1

[5] = target: SARS-CoV-2 Omicron BQ.1.1 spike pseudovirus
Description: as §1

[6] = target: SARS-CoV-2 Omicron XBB spike pseudovirus
Description: as §1

[7] = target: SARS-CoV-2 early D614G spike pseudovirus
Description: as §1

| Binder | pseudovirus neutralization IC50 [1] [µg/mL] | pseudovirus neutralization IC50 [2] [µg/mL] | pseudovirus neutralization IC50 [3] [µg/mL] | pseudovirus neutralization IC50 [4] [µg/mL] | pseudovirus neutralization IC50 [5] [µg/mL] | pseudovirus neutralization IC50 [6] [µg/mL] | pseudovirus neutralization IC50 [7] [µg/mL] |
| --- | --- | --- | --- | --- | --- | --- | --- |
| BD55-1144 (protein) chain 1: QLQLQESGPGLVKPSETLSLTCAVSGGSISSSQYYWVWIRQPPGKGLEWIGSIFYTGTTYYNASLNSRVTMSVDTSNNQFSLKLNSVTAADTAVYYCARQCPFFYDSSDYSTGSFDLWGQGTMVTVSS chain 2: QSALTQPASVSGSPGQSITISCTGTSSDVGSYNLVSWYQHHPAKAPKLLIYEVTKRPSGVSFRFSGSKSGNTASLTISGLQAEDEAEYYCCSFAGRSTFFGTGTKVTVL | > 10 | > 10 | > 10 | > 10 | > 10 | > 10 | > 10 |
| BD-507 (protein) chain 1: EVQLVESGGGLIQPGGSLRLSCAASGLTVSSNYMNWVRQAPGKGLEWVSVIYSGGSTYYADSVKGRFTISRDNSKNMVYLQMNSLRAEDTAVYYCARDLVVYGMDVWGQGTTVIVSS chain 2: DIQLTQSPSSLSASVGDRVTITCRASQGISSYLAWYQQKPGKAPKLLIYAASTLQSGVPSRFSGSGSGTDFTLTISSLQPEDVATYYCQQLNSNPPITFGPGTKVDIK | > 10 | > 10 | > 10 | > 10 | > 10 | > 10 | 0.0565 |
| BD55-6030 (protein) chain 1: QVQLVESGGGVVQPGRSLRLSCAVSGFIFRSYAMHWVRQAPGKGLEWVATISYDGSNKYYADSMKGRFTISRDNSKNTLYLQMNSLRAEDTAVYYCAKDFVSSIGRGPYHYNFYALDVWGQGTAVTVSS chain 2: NFMLTQPHSVSESPGKTVTISCTRSSGSIASNYVQWYQQRPGSSPTTLIFEDNQRPSGVSDRFSGSIDSSSNSASLTISGLQTDDEADYYCQSYDSDNLVFGGGTKLTVL | > 10 | > 10 | > 10 | > 10 | > 10 | > 10 | 0.625 |
| BD55-6033 (protein) chain 1: QVQLVQSAAEVKKPGSSVRVSCKASGGTFSAYTINWVRQAPGQGLEWMGGIIPIFGTPNYAQKFQGRVTITADESTSTAYMELSSLRSEDTAVYYCARGDYGISVADSYFDYWGQGTLVTVSS chain 2: EIVMTQSPATLSVSPGERATLSCRPSQSISSNLAWYQQKPGQAPRLLIYGASTRATGIPARFSGSASGTEFTLTISSLQSEDFAVYYCQQYNNWPPITFGQGTRLEIK | > 10 | > 10 | > 10 | > 10 | > 10 | > 10 | 1.17 |
| BD55-6041 (protein) chain 1: QITLKESGPTLVKPTQTLTLTCSFSGFSLTTSGVGVGWFRQPPGKALEWLALIYWDDDKRYSPSLKSRLTVTKDTSKNLVVLSMTNMDPVDTATYYCAHNRPQPGIPALGTWFDPWGQGTLVTVSS chain 2: QSVLTQPPSVSEAPRQRVTISCSGSSSNIGNNAVNWYQQLPGKAPKLLIYYDDLLPSGVSDRFSGSRSGTSASLAISGLQSQDEADYYCASWDDSLNGPVFGGGTKLTVL | > 10 | > 10 | > 10 | > 10 | > 10 | > 10 | 1.37 |
| BD55-6034 (protein) chain 1: EVQLLESGGGLVRPGGSLRLSCAASGFTFNNYAMHWVRQAPGKGLEWVSGISSRGDLKFYADYARGRFTISRDNSKNTLFLQMSSLSAEDTAVYYCAKEDNYYDSTGYYYVSWGQGVLVTVSS chain 2: DIQMTQSPSSLSASVGDRVTITCRASQTIGTYLNWYQQKPGKAPKLLIYKASSLQSGVPSRFSGSGSGTDFTLTISSLQPEDSATYYCQQSYSTPPYTFAQGTKLEIK | > 10 | > 10 | > 10 | > 10 | > 10 | > 10 | > 10 |
